Results of unrelated studies side by side (data: NIAID ChemDB).

Common to all: growth or infection tests; agent: Mycobacterium tuberculosis

ECn is the concentration giving n% inhibition of infection, replication or growth. Two numbers with a dash give a range or band. Inhibition is in % at the dose shown (toxicity tests: loss of growth or viability). An empty or dashed field is not shown. MIC bound comes from a single tested concentration. Neighbouring rows are from separate reports.

smiles	strain or isolate	cells	method	read-out	tested at	value
NC(=O)CSc1ncnc2c1cnn2COCC(O)CO	H37Rv			MIC		>6.25 µg/mL
O=c1oc2ccc(Cl)cc2c(=O)n1-c1ccc(C(F)(F)F)cc1	CNCTC MY331/88			MIC		2 µM
CC(C)=CCC/C(C)=C/CNCCNC(C)C12CC3CC(CC(C3)C1)C2				MIC		25 µM
CCC(Sc1ncnc2c1cnn2COCC(O)CO)C(N)=O	H37Rv			MIC		>6.25 µg/mL
NC(=S)NN=C1C(O)C(O)C(O)C(O)C1O	H37Rv		BACTEC	MIC bound		>12.5 µg/mL
N#Cc1ccc(NNC(=O)N2CCN(c3nc(N4CCN(c5ccccc5)CC4)c4ccccc4n3)CC2)cc1	H37Rv		BACTEC / fluorescence	MIC		>6.25 µg/mL
CCOC(=O)c1cc(NC(C)=O)cn1C	H37Rv		resazurin	inhibition	6.25 µg/mL	-1%
OCCCCCNCCNCCCCc1ccccc1				MIC		25 µM
NC[C@H]1O[C@H](O[C@H]2[C@H](O)[C@@H](O[C@H]3O[C@H](CO)[C@@H](O)[C@H](N)[C@H]3O)[C@H](N)C[C@@H]2N)[C@H](N)C[C@@H]1O	H37Rv			MIC		8 µg/mL
Cc1nc2c(C)cccn2c1C(=O)NNC(=S)Nc1ccccc1	H37Rv			inhibition	12.5 µg/mL	55%
NC[C@H]1O[C@H](O[C@@H]2[C@H](O)[C@@H](O[C@H]3O[C@H](CO)[C@@H](O)[C@H](N)[C@H]3O)[C@H](N)C[C@@H]2N)[C@H](O)[C@@H](O)[C@@H]1O	H37Ra		resazurin	MIC		2.5 µg/mL
O=C(c1ccccc1)c1c(CO[N+](=O)[O-])n([O-])c2ccccc2[n+]1=O	PAS-R			MIC		12.5 µg/mL
FC(F)(F)c1ccc(CNCCNCCN2CCOCC2)cc1				MIC		50 µM
Cc1ccc(NNC(=O)N2CCN(c3nc(N4CCN(c5ccccc5)CC4)c4ccccc4n3)CC2)cc1	H37Rv		BACTEC / fluorescence	MIC		>6.25 µg/mL
COc1ccc2c(=O)n(-c3ccc(Cl)cc3)c(=O)oc2c1	CNCTC MY331/88			MIC		16 µM
COc1ccccc1NNC(=O)N1CCN(c2nc(N3CCN(c4ccccc4)CC3)c3ccccc3n2)CC1	H37Rv		BACTEC / fluorescence	MIC		>6.25 µg/mL
Cc1cc(C)c2c(=O)n(CC(O)CN3CCc4ccccc4C3)sc2n1	H37Rv			EC50		>12.5 µg/mL
Cc1nc2c(C)cccn2c1C(=O)NNC(=S)Nc1ccc(F)cc1	H37Rv			MIC		>12.5 µM
CCCCCCCCN1CN(CCC(=O)O)CSC1=S	H37Rv			MIC		25 µg/mL
Cc1cc(C)c2c(n1)S(=O)(=O)N(CC(=O)c1ccccc1)C2=O	H37Rv			inhibition	12.5 µg/mL	36%
Cc1cc(S(=O)(=O)Nc2nc3cc(-c4ccc(Cl)cc4)sc3c(=O)n2N)c(S)cc1Cl	H37Rv		resazurin	MIC bound		>6.25 µg/mL
Cc1cc(C)c2c(=O)n(CC(O)CN3CCC(Cc4ccccc4)CC3)sc2n1	H37Rv			inhibition	12.5 µg/mL	100%
CC[C@@H](CO)NCCN[C@@H](CC)CO	WH 51/02			MIC		1.25 µg/mL
CN[C@@H]1[C@H](O)[C@H](NC)[C@H]2O[C@@]3(O)C(=O)C[C@@H](C)O[C@H]3O[C@@H]2[C@H]1O	H37Rv			MBC		>64 µg/mL
Nc1ccc2c(SCC(=O)Nc3ccccc3-c3ccccc3NC(=O)CSc3c4ccccc4nc4cc(N)ccc34)c3ccccc3nc2c1	H37Rv		resazurin	MIC bound		>6.25 µg/mL
CC(=O)Nc1ccc(S(=O)(=O)c2ccc(Nc3ccnc4ccc(C)cc34)cc2)cc1	Strain 1 (MDR)			MIC		1 µg/mL
CCOC(=O)C(=O)Cc1sccc1[N+](=O)[O-]	H37Rv		resazurin	inhibition	6.25 µg/mL	-10%
Cc1cc(C)c2c(=O)n(CC(O)CN3CCN(CCO)CC3)sc2n1	H37Rv			inhibition	12.5 µg/mL	15%
Cc1ccc(-n2c(=O)oc3ccc(C)cc3c2=O)cc1	CNCTC MY331/88			MIC		62.5 µM
Nc1nc(F)c(F)c2c1NCN2[C@@H]1O[C@H](CO)[C@@H](O)[C@H]1O	SRICK1			MIC		>100 µg/mL
CO[C@H]1/C=C/O[C@@]2(C)Oc3c(C)c(O)c4c(O)c(c(/C=N/N5CCN(C)CC5)c(O)c4c3C2=O)NC(=O)/C(C)=C\C=C\[C@H](C)[C@H](O)[C@@H](C)[C@@H](O)[C@@H](C)[C@H](OC(C)=O)[C@@H]1C				MIC		0.04 µg/mL
Cc1ccc(Sc2nnc(N3CCN(c4nc(N5CCN(c6ccccc6)CC5)c5ccccc5n4)CC3)o2)cc1	H37Rv		BACTEC / fluorescence	inhibition	6.25 µg/mL	0%
CN[C@@H]1[C@H](O[C@H]2[C@H](O[C@H]3[C@H](O)[C@@H](O)[C@H](N=C(N)N)[C@@H](O)[C@@H]3N=C(N)N)O[C@@H](C)[C@]2(O)C=O)O[C@@H](CO)[C@H](O)[C@H]1O	WC 64/02			MIC		0.625 µg/mL
O=S(=O)(Nc1ccnn1-c1ccccc1)c1ccc(Nc2ccnc3ccc(Cl)cc23)cc1	Strain 1 (MDR)			MIC		4 µg/mL
Cc1cc2c(ncn2[C@@H]2O[C@H](CO)[C@@H](O)[C@H]2O)c(C)n1	H37Ra			MIC		>100 µg/mL
CC[C@@H](CO)NCCNC1CCCCCCC1				MIC		25 µM
COc1cccc2c(Nc3ccc(S(=O)(=O)c4ccc(NC(C)=O)cc4)cc3)ccnc12	Strain 2 (MDR)			MIC		0.5 µg/mL
O=C(NNc1ccccc1[N+](=O)[O-])N1CCN(c2nc(N3CCN(c4ccccc4)CC3)c3ccccc3n2)CC1	H37Rv		BACTEC / fluorescence	MIC		>6.25 µg/mL
Cc1cc(Br)ccc1Nc1nc(N)nc(N)c1N=O	H37Rv		BACTEC	MIC bound		>12.5 µg/mL
CC(=O)Nc1ccc(S(=O)(=O)c2ccc(N)cc2)cc1	Strain 2 (MDR)			MIC		0.5 µg/mL
NC1=NN(c2ccccc2)C(=O)C1/C(=N/NC(=O)c1cc2ccccc2cc1O)C(=O)Nc1nc([N+](=O)[O-])cs1	H37Rv		resazurin	inhibition	6.25 µg/mL	0%
OCc1ccccc1Sc1ccccc1CNCCNCCc1ccccc1Cl				MIC		50 µM
S=c1n(-c2ccc(Cl)cc2)c2/c(=N/Nc3cc(Cl)ccc3Cl)c(n1-c1ccccn1)=NCCN=2	H37Rv		BACTEC	MIC		≥12.5 µg/mL
COC(c1ccccc1)c1c(-c2ccccc2)c(-c2ccccc2)n2ccc(C#N)cc12	H37Rv			inhibition	6.25 µg/mL	74%
O=C(Nc1ccccc1-c1nn(C(=S)Nc2ccccc2)c(=S)n(C(=S)Nc2ccccc2)c1=O)C(F)(F)F	H37Rv		BACTEC	inhibition	12.5 µg/mL	94%
CCC1CCC2CN(/N=C/c3c4c(O)c5c(O)c(C)c6c(c5c3O)C(=O)[C@@](C)(O/C=C/[C@H](OC)[C@@H](C)[C@@H](OC(C)=O)[C@H](C)[C@H](O)[C@H](C)[C@@H](O)[C@@H](C)/C=C/C=C(/C)C(=O)N4)O6)CCN2C1				MIC		0.03 µg/mL
CSC(=S)NS(=O)(=O)c1cccs1	H37Rv		BACTEC	MIC bound		>128 µg/mL
N#Cc1ccn2c(-c3ccc(Cl)cc3)c(-c3ccc(Cl)cc3)c(Br)c2c1	H37Rv	VERO		MIC		3.13 µg/mL
COc1cccc2c1C(=O)c1c(O)c3c(c(O)c1C2=O)C[C@@](O)(/C(CO)=N/NC(=O)c1ccc(Cl)c(Cl)c1)C[C@@H]3O[C@@H]1C[C@@H](N)[C@@H](O)[C@@H](C)O1	H37Rv		BACTEC	MIC		≥12.5 µg/mL
CCCCCCCCCCCNCCN[C@H]1C[C@@H]1c1ccccc1				MIC		50 µM
Cc1ccc2nc(-c3ccccc3)cc(Nc3cccc(O)c3)c2c1	Strain 2 (MDR)			MIC		>4 µg/mL
Cc1cc(=O)[nH]c(/N=C(\N)Nc2ccc(Cl)c(C(F)(F)F)c2)n1	H37Rv		BACTEC	MIC bound		>12.5 µg/mL
CC(Sc1ncnc2c1cnn2COCC(O)CO)C(N)=O	H37Rv			MIC		>6.25 µg/mL
NNC(=O)c1ccncc1	H37Rv			MIC		<0.016 µg/mL
OCC1(CO)CSSC1	H37Rv		BACTEC	MIC bound		>12.5 µg/mL
CC(C)(C)C(O)c1c(-c2ccccc2)c(-c2ccccc2)n2ccc(C#N)cc12	H37Rv	VERO		inhibition	6.25 µg/mL	94%
N#Cc1ccc(Sc2nnc(N3CCN(c4nc(N5CCN(c6ccccc6)CC5)c5ccccc5n4)CC3)o2)cc1	H37Rv		agar / visual reading	MIC		12.5 µg/mL
Cc1cc(NS(=O)(=O)c2ccc(Nc3c4ccccc4nc4c(C(=O)Nc5ccc(S(=O)(=O)N=C(N)N)cc5)cccc34)cc2)no1	H37Rv		BACTEC	inhibition	12.5 µg/mL	0%
CC(=O)NCC1CN(c2ccc(C(C)=O)cc2)C(=O)O1	15 isolates (INH RIF-R)			MIC		1.5–4 µg/mL
CCCCC(=O)c1ccn2c(-c3ccccc3)c(-c3ccccc3)c(C(C[N+](=O)[O-])c3ccccc3)c2c1	H37Rv			inhibition	6.25 µg/mL	16%
Cc1ccccc1Sc1nnc(N2CCN(c3nc(N4CCN(c5ccccc5)CC4)c4ccccc4n3)CC2)o1	H37Rv		BACTEC / fluorescence	inhibition	6.25 µg/mL	0%
N#Cc1ccn2c(-c3ccc(F)cc3)c(-c3ccc(F)cc3)c(Br)c2c1	H37Rv			inhibition	6.25 µg/mL	58%
C=CCN1COc2c(cc3c4c(cccc24)C(=O)O3)C1	H37Rv		BACTEC	inhibition	12.5 µg/mL	8%
O=Cc1ccc(NNC(=O)N2CCN(c3nc(N4CCN(c5ccccc5)CC4)c4ccccc4n3)CC2)cc1	H37Rv		BACTEC / fluorescence	inhibition	6.25 µg/mL	0%
O=c1oc2ccccc2c(=O)n1-c1cccc([N+](=O)[O-])c1	CNCTC MY331/88			MIC		16 µM
CCOC(=O)N1C(=O)c2ccccc2S1(=O)=O	H37Rv		BACTEC	MIC bound		>6.25 µg/mL
NNC(=O)c1ccncc1	H37Ra		resazurin	MIC		0.05 µg/mL
S=C1SCN(C2CCCCC2)CN1C1CC1	H37Rv			MIC		100 µg/mL
CC(=O)Oc1c(C)c2c(O)c3c1C1=C(OCOC1=C(C)C3=O)/C(C)=C/[C@@](C)(O)[C@H](O)[C@@H](C)[C@@H](O)[C@H](C(=O)O)[C@H](O)[C@H](C)C(O)[C@H](C)/C=C\C=C(/C)C(=O)N2	EMB-R			MIC		12.8 µg/mL
CCCCC(CC)CN1CN(CC(CC)CCCC)CC(C)(NCCNC(CC)CC)C1				MIC		25 µM
Cc1cc2c(cc1C)[n+]([O-])c(-c1nc3ccccc3s1)c(N)[n+]2[O-]	PZA-R			MIC		12.5 µg/mL
COC(c1ccccc1)c1c(-c2ccccc2)c(-c2ccccc2)n2ccc(C(C)=O)cc12	H37Rv			inhibition	6.25 µg/mL	80%
Nc1nc(F)c(F)c2c1ncn2[C@@H]1O[C@H](CO)[C@@H](O)[C@H]1O	H37Ra			MIC		10–100 µg/mL
CCCCCCCC(O)c1c(-c2ccccc2)c(-c2ccccc2)n2ccc(C#N)cc12	H37Rv			inhibition	6.25 µg/mL	57%
NC[C@H]1O[C@H](O[C@H]2[C@H](O)[C@@H](O[C@H]3O[C@H](CO)[C@@H](O)[C@H](N)[C@H]3O)[C@H](N)C[C@@H]2N)[C@H](O)[C@@H](O)[C@@H]1O	H37Rv			MBC		16 µg/mL
CCOC(=O)CCN1CSC(=S)N(C2CC2)C1	H37Rv			MIC		12.5 µg/mL
Cc1cc(C)c2c(=O)n(CC(O)CN3CCCC3)sc2n1	H37Rv			MIC		>12.5 µg/mL
C1CCNCC1.S=C(S)N1CCCCC1	EMB-R			MIC		0.8 µg/mL
COc1cccc2c(Nc3ccc(S(=O)(=O)Nc4ccnn4-c4ccccc4)cc3)ccnc12	Strain 2 (MDR)			MIC		8 µg/mL
COc1ccccc1CCNCCNC1CCCc2ccccc21				MIC		50 µM
O=Cc1ccc(Sc2nnc(N3CCN(c4nc(N5CCN(c6ccccc6)CC5)c5ccccc5n4)CC3)o2)cc1	H37Rv		agar / visual reading	MIC		25 µg/mL

A second listing of 7 rows from above:

{"smiles": "N#Cc1ccn2c(-c3ccc(F)cc3)c(-c3ccc(F)cc3)c(Br)c2c1", "strain or isolate": "H37Rv", "read-out": "inhibition", "tested at": "6.25 µg/mL", "value": "58%"}
{"smiles": "COc1cccc2c1C(=O)c1c(O)c3c(c(O)c1C2=O)C[C@@](O)(/C(CO)=N/NC(=O)c1ccc(Cl)c(Cl)c1)C[C@@H]3O[C@@H]1C[C@@H](N)[C@@H](O)[C@@H](C)O1", "strain or isolate": "H37Rv", "method": "BACTEC", "read-out": "MIC", "value": "≥12.5 µg/mL"}
{"smiles": "CCOC(=O)C(=O)Cc1sccc1[N+](=O)[O-]", "strain or isolate": "H37Rv", "method": "resazurin", "read-out": "inhibition", "tested at": "6.25 µg/mL", "value": "-10%"}
{"smiles": "N#Cc1ccn2c(-c3ccc(Cl)cc3)c(-c3ccc(Cl)cc3)c(Br)c2c1", "strain or isolate": "H37Rv", "cells": "VERO", "read-out": "MIC", "value": "3.13 µg/mL"}
{"smiles": "FC(F)(F)c1ccc(CNCCNCCN2CCOCC2)cc1", "read-out": "MIC", "value": "50 µM"}
{"smiles": "Nc1nc(F)c(F)c2c1NCN2[C@@H]1O[C@H](CO)[C@@H](O)[C@H]1O", "strain or isolate": "SRICK1", "read-out": "MIC", "value": ">100 µg/mL"}
{"smiles": "CCCCCCCCCCCNCCN[C@H]1C[C@@H]1c1ccccc1", "read-out": "MIC", "value": "50 µM"}